Results as given in publication PMC10132805 (Nature Communications, 2023).

T1: Mu homology domain (MHD) of the AP-2 subunit mu (AP2M1 MHD) (human, UniProt Q96CW1 170-434)
T1 sequence (looked up): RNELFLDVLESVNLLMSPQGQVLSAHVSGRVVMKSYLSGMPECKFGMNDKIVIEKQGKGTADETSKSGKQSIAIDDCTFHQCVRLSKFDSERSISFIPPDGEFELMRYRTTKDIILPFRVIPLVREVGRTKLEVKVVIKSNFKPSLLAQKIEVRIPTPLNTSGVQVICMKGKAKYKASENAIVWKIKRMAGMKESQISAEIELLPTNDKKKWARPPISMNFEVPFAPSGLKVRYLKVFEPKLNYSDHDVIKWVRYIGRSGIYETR


Columns and labels:
[1] = biological target: T1, Mu homology domain (MHD) of the AP-2 …; conditions: both partners purified
[2] = biological target: T2, C terminal domain of polyadenylate-binding protein 1 (PABP1 PABC) (human, UniProt P11940 542-619); conditions: both partners purified
T2 construct: also called PABPC1 PABC; PABP1 C

Binder	Kd [1]	Kd [2]
FDTEYQRLEAS (FITC on the N-terminus) [FITC - ATG9A 4-14 (Human)]	760 nM	
PTDSNFYRALMDEEDM [EGFR 992-1007 (Human)]	2400 nM	
KSNLNPNAKEFVPGVK (FITC on the N-terminus) [FITC - PAIP2 108-123 (Human)]		380 nM
